A mixed list of measured activities; the numbers were collected in NIAID ChemDB.

All rows: target-level tests; organism: HIV-1; target: Reverse transcriptase; read by: nucleotide incorporation / radiometric; measure: IC50

Neighbouring rows are from separate reports. ICn is the concentration giving n% inhibition. Blank or dashed fields: not listed here. Two numbers with a dash give a range or band.

SMILES	changes	strain	value
CCN1c2ncc(CCOc3ccc(CC(=O)O)c4ccccc34)cc2C(=O)Nc2c(C)ccnc21	RT-K103N Y181C	-	>1 µM
CCOC(=O)CN(C)C(=O)c1ccc(NC(=O)CSc2nnc(Br)n2-c2ccc(CC)c3ccccc23)c(Cl)c1	-	-	<0.05 µM
CCN1c2ncc(CCOc3ccc(-c4ccc(C(=O)O)cc4)c(C)c3)cc2C(=O)N(C)c2cccnc21	RT-K103N Y181C	IIIB	>0.1 µM
Cc1cc(C2CC2)c2ccccc2c1-n1c(Br)nnc1SCC(=O)Nc1ccc(C(=O)O)cc1Cl	-	-	<0.05 µM
CCN1c2ncc(CCc3ccc(C(=O)OC)cc3)cc2C(=O)N(C)c2cccnc21	RT-Y181C	-	<1 µM
CCCc1ccc(-n2c(Br)nnc2SCC(=O)Nc2ccc(S(N)(=O)=O)cc2Cl)c2ccccc12	RT-Y188L	-	>0.1 µM
CCN1c2ncccc2C(=O)N(C)c2ccc(-c3ccn(C)c3)nc21	RT-Y181C	-	>1 µM
CCN1c2ncc(CCc3cccc(I)c3)cc2C(=O)N(C)c2ccc(Cl)nc21	RT-Y181C	-	<1 µM
CCN1c2ncc(CCOc3ccc(-c4ccc(CC(=O)O)cc4)cc3CO)cc2C(=O)N(C)c2cccnc21	-	IIIB	<0.05 µM
NS(=O)(=O)c1ccc(NC(=O)CSc2nnc(Br)n2-c2ccc3c4c(cccc24)CC3)c(Cl)c1	RT-Y181C	-	<0.05 µM
CCN1c2ncc(CCOc3cccc(-c4ccccc4)c3)cc2C(=O)N(C)c2cccnc21	-	IIIB	<0.05 µM
Cc1cc(S(N)(=O)=O)ccc1NC(=O)CSc1nnc(Br)n1-c1ccc(C2CC2)c2ccccc12	RT-Y181C	-	<0.05 µM
CCN1c2ncc(CCOc3ccc(CC(C)C(=O)O)c4ccccc34)cc2C(=O)N(C)c2ccc(F)nc21	RT-V106A	-	>1 µM
COc1ccc2c(C)ccc(-n3c(Br)nnc3SCC(=O)Nc3ccc(C(=O)O)cc3Cl)c2c1	RT-Y188L	-	<0.05 µM
NS(=O)(=O)c1ccc(NC(=O)CSc2nnc(C(F)F)n2-c2ccc(C3CCCC3)c3ccccc23)c(Cl)c1	-	-	<0.05 µM
CCc1ccc(-n2c(Br)nnc2SCC(=O)Nc2ccc(C(=O)O)cc2Cl)c2ccccc12	RT-Y181C	-	<0.05 µM
CCN1c2ncc(CC(O)c3ccncc3)cc2C(=O)N(C)c2ccc(Cl)nc21	-	WT	<1 µM
CCN1c2ncc(CCOc3ccc(C(=O)O)c4c3CCN(C(=O)N(C)C)C4)cc2C(=O)N(C)c2cccnc21	-	WT	<0.1 µM
CCc1ccc(-n2c(Br)nnc2SCC(=O)Nc2ccc(C(=O)O)cc2Br)c2ccccc12	RT-Y188L	-	0.05–0.1 µM
CCN1c2ncc(CCOc3ccc(S(=O)(=O)c4cccc(CC(=O)O)c4)cc3C)cc2C(=O)N(C)c2cccnc21	RT-K103N Y181C	IIIB	<0.05 µM
Cc1cc(C(=O)O)ccc1NC(=O)CSc1nnc(Br)n1-c1ccc(C2CC2)c2ccccc12	-	-	<0.05 µM
CCc1ccc(-n2c(SCC(=O)Nc3ccc(C(=O)O)cc3Cl)nnc2C(F)(F)F)c2ccccc12	RT-Y181C	-	<0.05 µM
CCN1c2ncccc2C(=O)N(C)c2ccc(-c3cc[nH]c3C#N)nc21	-	WT	<1 µM
CCN1c2ncc(CCOc3ccc(-c4ccc(CC(=O)O)c(F)c4)cc3C)cc2C(=O)N(C)c2cccnc21	RT-K103N Y181C	IIIB	<0.05 µM
Cc1cc(C(=O)O)ccc1NC(=O)CSc1nnc(Br)n1-c1ccc(C2CC2)c2ccccc12	-	-	<0.05 µM
CCc1ccc(-n2c(Br)nnc2SCC(=O)Nc2ccc(C(=O)NCCN(C)C)cc2Cl)c2ccccc12	RT-Y188L	-	>0.1 µM
CCN1c2ncc(CCOc3cccc4c3ccc[n+]4[O-])cc2C(=O)Nc2c(C)cc(Cl)nc21	RT-Y181C	-	0.02 µM
CCN1c2ncc(CCOc3ccc(C(=O)NC(C)(C)C(=O)O)cc3C)cc2C(=O)N(C)c2cccnc21	-	IIIB	<0.05 µM
CCc1ccc(-n2c(Br)nnc2SCC(=O)Nc2ccc(C(=O)NCCO)cc2Cl)c2ccccc12	-	-	<0.05 µM
Cc1cc(C)cc(S(=O)(=O)c2c(C(N)=O)[nH]c3ccc(F)c(F)c23)c1	RT-Y181I	-	1.5 µM
CCN1c2ncc(CCOc3ccc(C(=O)O)c4c3CCN(C(C)=O)C4)cc2C(=O)N(C)c2cccnc21	-	WT	<0.1 µM
CCOC(=O)CCNC(=O)c1ccc(NC(=O)CSc2nnc(Br)n2-c2ccc(CC)c3ccccc23)c(Cl)c1	-	-	<0.05 µM
CCOC(=O)c1csc(-c2ccc(OCCc3cnc4c(c3)C(=O)N(C)c3cccnc3N4CC)c(C)c2)n1	-	IIIB	<0.05 µM
Cc1cc(C2CC2)cc(Cl)c1-n1c(Br)nnc1SCC(=O)Nc1ccc(C(=O)O)cc1Cl	-	-	<0.05 µM
CCN1c2ncc(CCc3ccncc3)cc2C(=O)N(C)c2ccc(=O)[nH]c21	-	WT	>1 µM
Nc1ccn([C@H]2CC[C@@H](COP(=O)(O)OP(=O)(O)OP(=O)(O)O)O2)c(=O)n1	RT-F77L	-	0.42 µM
CCc1ccc(-n2c(Br)nnc2SCC(=O)Nc2ccc(C(=O)NCCCCO)cc2Cl)c2ccccc12	-	-	<0.05 µM
Nc1ncnc2c1ncn2[C@H]1CC[C@@H](COP(=O)(O)OP(=O)(O)OP(=O)(O)O)O1	RT-1(IIIB)	IIIB	4.3 µM
CCc1ccc(-n2c(Br)nnc2SCC(=O)Nc2ccc(C(=O)NCCN3CCCC3)cc2Cl)c2ccccc12	RT-Y181C	-	<0.05 µM
NC(=O)c1[nH]c2ccc(Cl)cc2c1S(=O)(=O)c1ccccc1	RT-V179D	-	0.035 µM
CCOC(=O)C(C)NS(=O)(=O)c1ccc(NC(=O)CSc2nnc(C(F)F)n2-c2ccc(C)c3c2CCCC3)c(Cl)c1	RT-Y181C	-	>0.1 µM
CCOC(=O)CNC(=O)c1ccc(NC(=O)CSc2nnc(Br)n2-c2ccc(C3CC3)c3ccccc23)c(Cl)c1	RT-Y188L	-	<0.05 µM
CCc1ccc(-n2c(Br)nnc2SCC(=O)Nc2ccc(C(=O)N[C@H](C(=O)OC)C(C)C)cc2Cl)c2ccccc12	-	-	0.05–0.1 µM
CCN1c2ncc(CCOc3ccc(-c4ccc(CCC(=O)O)o4)cc3C)cc2C(=O)N(C)c2cccnc21	-	IIIB	<0.05 µM
CCN1c2ncc(CC(O)c3cc[n+]([O-])cc3)cc2C(=O)N(C)c2ccc(Cl)nc21	RT-Y181C	-	<1 µM
NS(=O)(=O)c1ccc(NC(=O)CSc2nncn2-c2ccc(C3CC3)c3ccccc23)c(Cl)c1	RT-Y188L	-	>0.1 µM
CCN1c2ncc(CCc3ccnc(C(N)=O)c3)cc2C(=O)N(C)c2ccc(Cl)nc21	RT-Y181C	-	<1 µM
CC[C@H](C)[C@H](NC(=O)c1ccc(NC(=O)CSc2nnc(Br)n2-c2ccc(C3CC3)c3ccccc23)c(Cl)c1)C(=O)O	RT-Y181C	-	0.05–0.1 µM
CCc1ccc(-n2c(Br)nnc2SCC(=O)Nc2ccc(S(N)(=O)=O)cc2Cl)c2ccccc12	-	-	<0.05 µM